# Experimental data taken from paper PMC8238200, “NleB2 from enteropathogenic Escherichia coli is a novel arginine-glucose transferase effector” (2021).
# Target: NleB1 (Escherichia coli, UniProt B7UI21)
# Experiment: UDP-Glo assay (UDP release, luminescence), Michaelis-Menten fit
# Conditions: acceptor 1 μM MBP-RIPK1DD (human death domain); 150 nM enzyme; pH 7.4, 10 mM MgCl2, 1 mM MnCl2, 30 °C, 30 min
structure (smiles),measurement,value
CC(=O)N[C@H]1[C@@H](OP(=O)(O)OP(=O)(O)OC[C@H]2O[C@@H](n3ccc(=O)[nH]c3=O)[C@H](O)[C@@H]2O)O[C@H](CO)[C@@H](O)[C@@H]1O,Km,while the reverse was true for NleB2S252G and NleB1
